Assay: Corrosion rate of brass coupons, ASTM G31-72 (04) (FIG. 4-6)

| SMILES | Corrosion Rate (NBS, 0.05% Mazon RI 246) [mg/min] | Corrosion Rate (NBS, 0.10% Mazon RI 246) [mg/min] | Corrosion Rate (NBS, 0.15% Mazon RI 246) [mg/min] | Corrosion Rate (NBS, 0.25% Mazon RI 246) [mg/min] | corrosion rate relative to the rate usually observed for water alone (about 1.0% NBS, pH about 3 to about 7, 25° C) | Corrosion Rate (1% NCS, 0.05% benzotriazole) [mg/min] | Corrosion Rate (1% NCS, 0.1% benzotriazole) [mg/min] |
| --- | --- | --- | --- | --- | --- | --- | --- |
| O=C1CCC(=O)N1Br [NBS, N-bromosuccinimide] | 0.38 | 0.12 | 0.08 | 0.05 | about three fold | – | – |
| O=C1CCC(=O)N1Cl [NCS, N-chlorosuccinimide] | – | – | – | – | – | 0.02 | 0.02 |

Source: patent publication US20070196359A1, “Halosuccinimide biocide” (Minntech Corporation, priority 2006, published 2007)
